Tested on: E. coli MC4100
Experiment: Antibiotic uptake assay (UPLC-MS of culture supernatant)
Format: cell-based, Escherichia coli
Settings: 4-h time point, MHBCA, initial 200 μM

With `N[C@@H](C(=O)N[C@@H]1C(=O)N2C(C(=O)O)=C(Cl)CC[C@H]12)c1ccccc1` [LOR, loracarbef, reference compound] the “drug disappeared from the supernatant” value was “over 194 μM”.

From PMC12592502, “Unraveling the mechanisms behind the enhanced efficacy of β-lactam-based sideromycins” (Communications Biology, 2025)
